Measured values from several laboratories, pooled; numbers as filed in NIAID ChemDB.

All rows: host cell toxicity; cells: C8166; method: MTT; measure: CC50

CCn: concentration that lowers growth or viability of the cells by n%. Neighbouring rows are from separate reports.

SMILES | value
CN(Cc1nc2ccccc2[nH]1)Cc1ncccc1CCCNC(=O)OC(C)(C)C | >10 µM
C=C(C)[C@@]12OC3(C)O[C@@H]1[C@@H]1[C@H](O)[C@@](C)(O)[C@@H](O)[C@@]4(O)[C@@H](C[C@H](C)[C@@H]4O)[C@@]1(O3)[C@H](C)[C@@H]2OCc1ccccc1 | 0.0371 µM
C/C(=N\NC(=O)c1ccccc1)c1cn(S(=O)(=O)c2ccc(C)cc2)c2ccccc12 | 8.79 µg/mL
COc1cc([C@H]2OC[C@H]3[C@@H]2CO[C@H]3c2ccc(O)c(OC)c2)ccc1O | >200 µg/mL
CC1(C)C=Cc2c(cc(O)c3c(=O)cc(-c4ccc(O)cc4)oc23)O1 | 246.8 µM
CC1=C[C@H]2[C@@]3(O)[C@H](C)[C@@H](OC(=O)CCCCCCCCBr)[C@]4(OC(=O)CCCCCCCCBr)[C@H]([C@@H]3C=C(CO)C[C@]2(O)C1=O)C4(C)C | 74 µM
COc1cc2oc3cccc(O)c3c(=O)c2c2c1OC(C)(C)C=C2 | >493.8 µM
CCO[C@H]1OC[C@H](Cc2ccc(O)c(OC)c2)[C@H]1Cc1ccc(O)c(OC)c1 | 19.23 µg/mL
Cc1ccc(S(=O)(=O)n2cc(/C=N/NC(=O)c3ccccc3)c3ccccc32)cc1 | 89.93 µg/mL
CC1=C[C@H]2[C@@]3(O)[C@H](C)[C@@H](OC(=O)/C=C/c4ccccc4)[C@]4(OC(=O)/C=C/c5ccccc5)[C@H]([C@@H]3C=C(CO)C[C@]2(O)C1=O)C4(C)C | 26.1 µM
O=C(c1cc2c([nH]c3ccccc32)c(-c2cccs2)n1)N1CCC(c2ccccc2Cl)CC1 | >400 µM
C=C(C)OCC12O[C@@]3([C@@H]1OC(C)=O)[C@@H](OC(C)=O)[C@@H](C)C[C@H]3[C@]1(O)[C@H]([C@@H](OC(C)=O)[C@](OCc3ccccc3)(C(=C)C)[C@@H](OC(C)=O)[C@H]1C)[C@@H]2OC(C)=O | >0.2591 µM
CC(=O)O[C@@]12[C@H](OC(=O)/C=C/c3ccc(F)cc3)[C@@H](C)[C@@]3(O)[C@@H](C=C(CO)C[C@]4(O)C(=O)C(C)=C[C@@H]34)[C@@H]1C2(C)C | 107 µM
Clc1ccc(OCc2ccccc2)cc1 | 106 µg/mL
C=CC(C)(C)c1cc2ccc(O)c(OC)c2oc1=O | 330.2 µM
CN1CCN(c2ccnc3nc(CN(CCCCN)Cc4ncccc4-c4ccc(C(F)(F)F)cc4)[nH]c23)CC1 | >10 µM
CC/C=C\C/C=C\C/C=C\C/C=C\C/C=C\C/C=C\CCC(=O)O[C@@H]1[C@@H](C)[C@@]2(O)[C@@H](C=C(CO)C[C@]3(O)C(=O)C(C)=C[C@@H]23)[C@@H]2C(C)(C)[C@]12O | 46.3 µM
CC1(C)C=Cc2cc3ccc(=O)oc3cc2O1 | 732 µM
COc1cc[n+](-c2cccnc2CN(CCCCN)Cc2nc3nccc(N4CCN(C)CC4)c3[nH]2)cc1 | >10 µM
CCCCCCCCC(=O)O[C@@H]1[C@@H](C)[C@@]2(O)[C@@H](C=C(CO)C[C@]3(O)C(=O)C(C)=C[C@@H]23)[C@@H]2C(C)(C)[C@]12OC(=O)CCCCCCCC | 107 µM
COc1cc([C@H]2c3cc(O)c(OC)cc3C[C@@H](COC(C)=O)[C@@H]2CO)ccc1O | >200 µg/mL
O=[N+]([O-])c1ccc(COc2ccc([N+](=O)[O-])cc2)cc1 | 169 µg/mL
COc1cccc(C2CCN(C(=O)c3cc4c([nH]c5ccccc54)c(-c4cccs4)n3)CC2)c1 | 256 µM
O=C(C[C@@H](O)CCc1ccccc1)c1ccc(O)cc1 | 93.02 µg/mL
COc1ccc(N2CCN(C(=O)c3cc4c([nH]c5ccccc54)c(-c4cccs4)n3)CC2)cc1 | >400 µM
O=[N+]([O-])c1ccc(COc2ccccc2)cc1 | 109.2 µg/mL
C[C@H]1[C@@H]2CC[C@@H]1[C@@H](OC(=O)c1ccccc1)/C=C/C=C/C(=O)O[C@H]1CC[C@@H]3[C@]1(O)[C@H](O)[C@@]1(CO)O[C@H]1[C@H]1[C@@H](O)[C@@](O)([C@H]4OC(C)(c5ccccc5)O[C@]13[C@@H]4C)[C@](C)(O)C2 | 0.0152 µM
O=C(c1cc2c([nH]c3ccccc32)c(-c2cccs2)n1)N1CCC(c2cccc(Cl)c2)CC1 | >400 µM
CN(Cc1nc2ncccc2[nH]1)Cc1ncccc1CCC#N | >10 µM
O=C(N/N=C/c1cn(S(=O)(=O)c2ccc(Cl)c([N+](=O)[O-])c2)c2ccccc12)c1ccccc1 | 1.77 µg/mL
CN(Cc1nc2ccccc2n1C(=O)OC(C)(C)C)C1CCCc2cccnc21 | 10 µM
COc1cc([C@H]2c3cc(O)c(OC)cc3C[C@@H](CO)[C@@H]2CO)ccc1O | >200 µg/mL
CC1=C[C@H]2[C@@]3(O)[C@H](C)[C@@H](O)[C@]4(OC(=O)CCCC[C@@H]5SC[C@@H]6NC(=O)N[C@@H]65)[C@H]([C@@H]3C=C(CO)C[C@]2(O)C1=O)C4(C)C | >200 µM
N#Cc1ccc2c(c1)c(/C=N/NC(=O)c1ccccc1)cn2S(=O)(=O)c1cccc([N+](=O)[O-])c1 | 21.47 µg/mL
COc1cc(C[C@H]2CO[C@H](c3ccc(O[C@@H]4O[C@H](COC(C)=O)[C@@H](O)[C@H](O)[C@H]4O)c(OC)c3)[C@H]2CO)ccc1O | >200 µg/mL
C/C=C(/C)C(=O)O[C@@]12[C@H](O)[C@@H](C)[C@@]3(O)[C@@H](C=C(CO)C[C@]4(O)C(=O)C(C)=C[C@@H]34)[C@@H]1C2(C)C | >200 µM
Cc1cccnc1CN(C)Cc1nc2ccccc2[nH]1 | >10 µM
COc1cc([C@H]2OC[C@H]3[C@@H]2CO[C@@H]3c2cc(OC)c(O[C@@H]3O[C@H](O)[C@@H](O)[C@H](O)[C@H]3O)c(OC)c2)cc(OC)c1O | >200 µg/mL
O=[N+]([O-])c1ccccc1OCc1ccccc1 | 117 µg/mL

2 of the rows above, restated:

| SMILES | value |
|---|---|
| C=C(C)[C@@]12OC3(C)O[C@@H]1[C@@H]1[C@H](O)[C@@](C)(O)[C@@H](O)[C@@]4(O)[C@@H](C[C@H](C)[C@@H]4O)[C@@]1(O3)[C@H](C)[C@@H]2OCc1ccccc1 | 0.0371 µM |
| COc1cc([C@H]2c3cc(O)c(OC)cc3C[C@@H](COC(C)=O)[C@@H]2CO)ccc1O | >200 µg/mL |